Earlier results in article PMC4885069.

Biological target: SV2C LD4 (Rattus norvegicus) (UniProt Q9Z2I6)
Test: SPR
Details: cited from earlier work

**Q.** With BoNT/A HC (from UniProt P0DPI1) as the substance, how does the Kd read?
**A.** 550 nM
